Assay results: paper PMC9040744 (mBio, 2022)

Target: MACV GP1 (Machupo virus GP1 glycoprotein, residues 87 to 257) (Machupo virus (MACV)., UniProt Q6PXS3)
Assay: crystal structure

B1: Fab fragment of NAb MAC1 (Fab, V domains shown)
VH: QVQLQQSGAELVKPGASVKISCKASGYAFGSHWMNWVKQRPGKGLEWIGQIYPGDGDTNYNGKFKGKATLTADKSSSTAYMQFSSLTSEDSAVYFCARDDYGTRYYFDYWGQGTTLTVSS
VL: DIQMTQTTSSLSASLGDRVSISCRASQDINNYLNWYQQKPDGTVKLLIHYTSRLRSGVPSRFSGSGFGTDYSLTITNLEQEDIATYFCQQGKTLPLTFGAGTKLEIK
notes: also called Fab MAC1; MAC1 Fab; source: HEK293T, heavy and light chains coexpressed, purified
binding result: binds
